Here are results for one substance from paper PMC12192683.

Chains of the proteins cited; added tags and fusions are not shown. Residues count along the entry.
UniProt Q07954, 20-4544: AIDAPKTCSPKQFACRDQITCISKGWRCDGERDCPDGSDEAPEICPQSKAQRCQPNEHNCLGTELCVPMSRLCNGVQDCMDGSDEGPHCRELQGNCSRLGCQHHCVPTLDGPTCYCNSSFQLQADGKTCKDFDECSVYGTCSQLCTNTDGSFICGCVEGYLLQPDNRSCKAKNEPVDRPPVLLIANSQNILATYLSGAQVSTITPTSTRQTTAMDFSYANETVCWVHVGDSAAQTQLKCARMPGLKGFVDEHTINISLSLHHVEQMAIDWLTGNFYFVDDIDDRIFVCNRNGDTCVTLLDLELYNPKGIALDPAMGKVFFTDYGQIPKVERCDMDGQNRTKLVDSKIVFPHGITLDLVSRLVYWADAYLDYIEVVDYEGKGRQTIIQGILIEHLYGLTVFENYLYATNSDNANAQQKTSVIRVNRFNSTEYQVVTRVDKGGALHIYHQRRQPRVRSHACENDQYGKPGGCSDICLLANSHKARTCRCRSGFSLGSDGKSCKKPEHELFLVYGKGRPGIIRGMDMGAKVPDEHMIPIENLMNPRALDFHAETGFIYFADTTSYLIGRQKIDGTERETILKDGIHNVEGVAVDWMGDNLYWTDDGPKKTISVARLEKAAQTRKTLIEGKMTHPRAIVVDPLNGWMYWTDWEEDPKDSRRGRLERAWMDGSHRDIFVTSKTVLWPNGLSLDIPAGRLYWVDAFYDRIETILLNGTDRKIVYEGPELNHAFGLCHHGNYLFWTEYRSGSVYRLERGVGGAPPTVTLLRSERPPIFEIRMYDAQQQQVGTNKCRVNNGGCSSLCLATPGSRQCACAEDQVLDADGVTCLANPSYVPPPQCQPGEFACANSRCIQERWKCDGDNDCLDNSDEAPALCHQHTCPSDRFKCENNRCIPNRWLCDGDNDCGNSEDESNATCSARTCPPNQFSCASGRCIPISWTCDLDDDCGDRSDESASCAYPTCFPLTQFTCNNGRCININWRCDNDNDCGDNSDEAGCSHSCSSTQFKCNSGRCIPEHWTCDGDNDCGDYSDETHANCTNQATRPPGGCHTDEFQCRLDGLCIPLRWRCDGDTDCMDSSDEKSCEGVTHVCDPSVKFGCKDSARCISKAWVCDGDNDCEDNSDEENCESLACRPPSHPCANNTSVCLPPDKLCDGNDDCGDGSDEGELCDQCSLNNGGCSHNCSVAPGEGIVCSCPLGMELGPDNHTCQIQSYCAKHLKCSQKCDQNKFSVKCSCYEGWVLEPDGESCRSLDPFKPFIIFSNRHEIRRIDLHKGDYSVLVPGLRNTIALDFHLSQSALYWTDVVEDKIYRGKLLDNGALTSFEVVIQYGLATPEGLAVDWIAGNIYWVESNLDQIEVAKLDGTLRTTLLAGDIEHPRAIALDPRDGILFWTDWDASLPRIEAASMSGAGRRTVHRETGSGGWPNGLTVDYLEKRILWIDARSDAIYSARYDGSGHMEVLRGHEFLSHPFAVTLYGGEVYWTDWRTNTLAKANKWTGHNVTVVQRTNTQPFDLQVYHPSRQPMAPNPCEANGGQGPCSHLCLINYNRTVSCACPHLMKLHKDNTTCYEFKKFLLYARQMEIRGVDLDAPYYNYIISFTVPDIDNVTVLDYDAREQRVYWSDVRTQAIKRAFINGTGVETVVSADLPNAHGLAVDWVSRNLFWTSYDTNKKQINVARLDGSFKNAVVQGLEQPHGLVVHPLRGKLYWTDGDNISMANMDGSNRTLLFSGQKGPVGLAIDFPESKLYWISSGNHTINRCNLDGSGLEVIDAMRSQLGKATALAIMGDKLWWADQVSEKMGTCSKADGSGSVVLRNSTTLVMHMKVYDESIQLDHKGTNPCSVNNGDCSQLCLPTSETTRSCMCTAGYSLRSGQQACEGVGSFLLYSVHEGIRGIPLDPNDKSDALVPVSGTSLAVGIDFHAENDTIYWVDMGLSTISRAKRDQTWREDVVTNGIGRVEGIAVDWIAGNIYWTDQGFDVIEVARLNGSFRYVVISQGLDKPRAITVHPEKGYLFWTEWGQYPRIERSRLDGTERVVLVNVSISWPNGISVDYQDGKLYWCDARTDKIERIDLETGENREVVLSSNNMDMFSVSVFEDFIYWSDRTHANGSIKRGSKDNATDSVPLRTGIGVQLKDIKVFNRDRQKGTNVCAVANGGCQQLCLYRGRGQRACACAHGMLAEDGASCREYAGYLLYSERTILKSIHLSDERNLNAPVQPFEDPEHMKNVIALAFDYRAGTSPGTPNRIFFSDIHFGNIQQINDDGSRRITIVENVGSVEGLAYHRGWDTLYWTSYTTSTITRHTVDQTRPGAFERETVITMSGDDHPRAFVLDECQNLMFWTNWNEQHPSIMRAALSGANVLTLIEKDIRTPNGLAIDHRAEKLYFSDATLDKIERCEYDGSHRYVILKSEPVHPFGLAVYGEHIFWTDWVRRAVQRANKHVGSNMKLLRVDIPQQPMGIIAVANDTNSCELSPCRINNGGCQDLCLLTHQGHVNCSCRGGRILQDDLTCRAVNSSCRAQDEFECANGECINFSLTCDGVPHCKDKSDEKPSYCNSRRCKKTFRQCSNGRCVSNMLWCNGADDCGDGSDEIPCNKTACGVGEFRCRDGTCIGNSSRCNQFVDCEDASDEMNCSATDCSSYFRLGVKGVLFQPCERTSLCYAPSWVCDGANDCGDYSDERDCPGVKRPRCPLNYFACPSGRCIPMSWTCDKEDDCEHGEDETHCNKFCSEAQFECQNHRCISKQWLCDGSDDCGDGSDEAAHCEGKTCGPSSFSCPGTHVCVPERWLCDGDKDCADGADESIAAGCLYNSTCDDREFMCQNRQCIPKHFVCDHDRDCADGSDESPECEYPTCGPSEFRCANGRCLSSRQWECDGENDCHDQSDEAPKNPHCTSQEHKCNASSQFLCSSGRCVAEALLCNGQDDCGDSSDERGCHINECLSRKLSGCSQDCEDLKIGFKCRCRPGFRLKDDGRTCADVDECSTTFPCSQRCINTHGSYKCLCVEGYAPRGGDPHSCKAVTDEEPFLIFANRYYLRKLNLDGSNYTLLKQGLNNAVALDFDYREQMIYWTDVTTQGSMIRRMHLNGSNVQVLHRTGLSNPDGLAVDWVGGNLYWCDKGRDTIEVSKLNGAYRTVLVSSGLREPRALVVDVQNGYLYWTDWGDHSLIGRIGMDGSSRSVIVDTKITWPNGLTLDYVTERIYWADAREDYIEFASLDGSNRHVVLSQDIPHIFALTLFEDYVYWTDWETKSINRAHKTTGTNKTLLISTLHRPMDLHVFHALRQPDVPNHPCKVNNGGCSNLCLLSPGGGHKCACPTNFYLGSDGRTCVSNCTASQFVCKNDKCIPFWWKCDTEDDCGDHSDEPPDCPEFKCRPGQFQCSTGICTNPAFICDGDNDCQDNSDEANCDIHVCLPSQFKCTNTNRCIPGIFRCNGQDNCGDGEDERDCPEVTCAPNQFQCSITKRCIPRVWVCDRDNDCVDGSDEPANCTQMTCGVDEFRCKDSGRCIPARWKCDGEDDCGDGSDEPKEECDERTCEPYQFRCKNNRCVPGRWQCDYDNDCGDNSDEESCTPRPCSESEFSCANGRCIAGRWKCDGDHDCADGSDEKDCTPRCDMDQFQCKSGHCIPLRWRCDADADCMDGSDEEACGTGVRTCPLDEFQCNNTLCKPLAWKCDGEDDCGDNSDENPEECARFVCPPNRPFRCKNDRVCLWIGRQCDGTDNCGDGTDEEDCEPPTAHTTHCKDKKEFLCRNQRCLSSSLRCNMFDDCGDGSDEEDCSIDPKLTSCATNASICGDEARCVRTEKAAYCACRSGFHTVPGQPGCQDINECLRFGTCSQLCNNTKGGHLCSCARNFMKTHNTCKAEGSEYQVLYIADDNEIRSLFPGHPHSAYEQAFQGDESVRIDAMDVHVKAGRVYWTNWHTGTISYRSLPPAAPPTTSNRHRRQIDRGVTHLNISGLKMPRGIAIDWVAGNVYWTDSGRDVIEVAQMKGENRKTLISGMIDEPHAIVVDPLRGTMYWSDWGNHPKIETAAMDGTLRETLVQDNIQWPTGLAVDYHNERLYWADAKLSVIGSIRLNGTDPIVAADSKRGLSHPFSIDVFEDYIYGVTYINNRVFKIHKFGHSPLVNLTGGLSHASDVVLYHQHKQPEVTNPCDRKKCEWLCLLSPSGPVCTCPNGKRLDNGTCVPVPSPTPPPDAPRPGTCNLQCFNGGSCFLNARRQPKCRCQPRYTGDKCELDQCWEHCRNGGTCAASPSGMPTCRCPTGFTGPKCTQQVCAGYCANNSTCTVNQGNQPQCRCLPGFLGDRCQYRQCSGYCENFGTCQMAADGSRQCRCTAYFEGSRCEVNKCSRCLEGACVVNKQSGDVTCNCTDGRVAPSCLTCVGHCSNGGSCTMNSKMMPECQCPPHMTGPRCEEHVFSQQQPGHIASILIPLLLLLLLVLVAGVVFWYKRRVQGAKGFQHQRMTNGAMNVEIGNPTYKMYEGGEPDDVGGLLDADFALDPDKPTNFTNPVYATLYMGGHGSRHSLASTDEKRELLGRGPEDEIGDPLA

This assay deals with low-density lipoprotein receptor-related protein 1 (LRP1), full-length, purified from human placenta (human) (UniProt Q07954). Kind of assay: SPR; Biacore 3000; receptor amine-coupled to CM5 chip; ligand flowed in HBS-P (0.01 M HEPES pH 7.4, 0.15 M NaCl, 0.005% P20) with 1 mM CaCl2, 10 ul/min, 25 C; kinetic fit to a 1:1 Langmuir model. Background: SPR reads the build-up and loss of mass on a sensor chip optically.

With “SARS-CoV-2 spike protein S1 subunit (Val16-Arg685) fused to the Fc region of mouse IgG1 (from UniProt P0DTC2 16-685) (Fc fusion)”, the Kd is 38 nM, the koff was found to be 0.00022 s⁻¹ and the kon was determined as 5400 M⁻¹ s⁻¹.

By Kd is commonly meant the concentration at which binding is half-saturated. Broadly, the koff is the rate constant with which the complex falls apart. As a reminder, the kon is a measure of how fast the partners come together. High values mean fast association, low ones slow association.
